A mixed list of measured activities; the numbers were collected in NIAID ChemDB.

All rows: growth or infection tests

Blank or dashed fields: not listed here. Percent inhibition refers to the dose given; in toxicity tests it is the harm to the cells. Neighbouring rows are from separate reports. MIC50, MIC90 and the like: level of inhibition, or share of isolates inhibited. Two numbers with a dash give a range or band. ECn is the concentration giving n% inhibition of infection, replication or growth.

compound	read-out	tested at	setting	organism	strain or isolate	read by	cell line	result
CCN(CC)CCCC(C)Nc1ccnc2cc(Cl)ccc12	inhibition	25 µg/mL		Encephalitozoon cuniculi		cytopathic effect	MRC-5 fibroblasts	34%
CC[C@@]1(O)C(=O)OCc2c1cc1n(c2=O)Cc2cc3c(N)c4c(cc3nc2-1)OCO4	EC50			Trypanosoma brucei				0.074 µM
COc1ncnc(N2CC[N+]3(CC2)CC[N+]2(CCN(c4ncnc(OC)c4[N+](=O)[O-])CC2)CC3)c1[N+](=O)[O-]	EC50			Coxsackie virus	B3	cytopathic effect	HeLa	>70 µg/mL
Nc1ncnc2c1ncn2[C@H]1CC[C@@H](CO)O1	inhibition	100 µM		HIV-2	LAV-2	virus yield	U-937	95%
COc1nc(C(Cl)(Cl)Cl)c(Cl)c(OC)c1Cl	EC50			Kaposi sarcoma virus		GFP / microscopy	BC3	>100 µM
CCCCCCCCCCCCCCCC(=O)C1=C(O)C(C)(C)C(=O)C(C)(C)C1=O	MIC			Enterococcus faecalis	Vancomycin-resistant			31 µg/mL
NNC(=S)N/N=C/c1cn(Cc2ccccc2)c2ccccc12	MIC100		24 h	Mycobacterium bovis BCG	1173P2	broth dilution		>500 µg/mL
Nc1nc2c(ncn2CCC(CO)CO)c(=O)[nH]1	inhibition	10 µM	6 d	Human herpesvirus 6	729	antigen	HUMAN CORD BLOOD CELL	0%
c1cc(C2=NCCN2)ccc1CC1CCCN(c2ccc(C3=NCCN3)cc2)C1	EC50			Pneumocystis carinii			A549	1.23 µg/mL
CCOC(OCC)C(CC)[Se]c1ccccc1[N+](=O)[O-]	EC50			Kaposi sarcoma virus		GFP / microscopy	BC3	1 µM
O=C(Nc1ccccc1)c1ccccc1OP(=O)(c1ccccc1)c1ccccc1	MIC		7 d	Mycobacterium kansasii	My 235/80			62.5 µM
NC12CC3CC(CC(C3)C1)C2	EC50			Influenza B virus	Nagasaki/1/87	plaque count	MDCK	>50 µg/mL
O=C(Nc1ccc(C(F)(F)F)cc1)c1cc(Br)ccc1OP(=O)(OCc1ccccc1)OCc1ccccc1	MIC		21 d	Mycobacterium kansasii	My 6509/96			16 µM
CC(C)C(=O)C1=C(O)C(C)(C)C(=O)C(C)(C)C1=O	MIC			Enterococcus faecalis	Vancomycin-resistant			125 µg/mL
NC(=O)c1ncn([C@@H]2O[C@H](CO)[C@@H](O)[C@H]2O)n1	EC50			Measles virus	CC	neutral red	CV-1	20 µg/mL
[Cl][Cd][Cl]	EC50			Kaposi sarcoma virus		GFP / microscopy	BC3	0.5 µM
CC1(C)[C@@H](O[C@H]2O[C@H](C(=O)O)[C@@H](O)[C@H](O)[C@H]2O[C@@H]2O[C@H](C(=O)O)[C@@H](O)[C@H](O)[C@H]2O)CC[C@]2(C)[C@H]3C(=O)C=C4[C@@H]5C[C@@](C)(C(=O)O)CC[C@]5(C)CC[C@@]4(C)[C@]3(C)CC[C@@H]12	EC90			Dengue virus	TYPE 2 (NGC)	virus yield	VERO	317 µg/mL
O=C(Nc1ccc(Cl)c(Cl)c1)c1cc(Cl)ccc1OP(=O)(Oc1ccccc1)Oc1ccccc1	MIC		21 d	Mycobacterium kansasii	My 235/80			8 µM
CN1CCC2(C1)C1CCCC2CCC1	inhibition	100 µM		Rhinovirus			HeLa	<20%
O=C(CCCl)NN1CC[N+]2(CC1)CC[N+]1(CCN(NC(=O)CCCl)CC1)CC2	EC50			Coxsackie virus	B3	cytopathic effect	HeLa	>70 µg/mL
c1cc(N2CCN(c3ccc(C4OCCO4)cc3)CC2)ccc1C1OCCO1	EC50			Pneumocystis carinii			A549	>100 µg/mL
Cc1ncc([N+](=O)[O-])n1CCO	inhibition	50 µg/mL		Encephalitozoon cuniculi		cytopathic effect	MRC-5 fibroblasts	89%
O=C(Nc1ccc(Cl)cc1)c1cc(Cl)ccc1OP(=O)(OCc1ccccc1)OCc1ccccc1	MIC		21 d	Mycobacterium kansasii	My 235/80			32 µM
C=C1NC(=O)C=NN1[C@@H]1O[C@H](CO)[C@@H](O)[C@H]1O	EC50			Kaposi sarcoma virus		GFP / microscopy	BC3	0.5 µM
N/C(=N\C1=NCCN1)c1ccc(NC(=O)C2CC2C(=O)Nc2ccc(/C(N)=N/C3=NCCN3)cc2)cc1	EC50			Pneumocystis carinii			A549	8.2 µg/mL
O=C(O)c1cc2oc3ccccc3c2cc1O	inhibition	100 µM		Rhinovirus	TYPE 16	plaque count	HELA-H1	100%
CCCCCCCCCCCC(=O)C1=C(O)C(CC=C(C)C)(CC=C(C)C)C(=O)C(CC=C(C)C)(CC=C(C)C)C1=O	MIC			Enterococcus faecalis	Vancomycin-resistant			125 µg/mL
CCOc1ccc(Nc2cc(C)nc3ccc(OC)cc23)cc1	EC50			Plasmodium falciparum	K1	flow cytometry	Erythrocytes	6.09 µM
CCCCCn1cc(/C=N/NC(=S)NN)c2ccccc21	MIC100		48 h	Mycobacterium bovis BCG	1173P2	broth dilution		>500 µg/mL
Cc1ccc(C)c(CN2CCN(c3nc(C(=O)O)cs3)CC2)c1	EC50			Rhinovirus	TYPE 2	cytopathic effect	HeLa	0.5 µg/mL
C=CCN1CCC2(C1)C1CC3CC(C1)CC2C3	inhibition	100 µM		Coxsackie virus	TYPE A21		HeLa	40–70%
CCCCCCCCCCCC1=C(O)C(C)(C)C(=O)C(C)(CC=C(C)C)C1=O	MIC			Enterococcus faecalis	Vancomycin-resistant			31 µg/mL
C1CCC2(CC1)CCNC2	inhibition	100 µM		Coxsackie virus	TYPE A21		HeLa	20–40%
Clc1ccc([Se][Se]c2ccc(Cl)cc2)cc1	MFC			Candida dubliniensis		broth dilution		>64 µg/mL
CC(=O)N[C@H]1[C@@H](O[C@@H]2O[C@H](C[C@@H](O)[C@H]3O[C@@H](n4ccc(=O)[nH]c4=O)[C@H](O)[C@@H]3O)[C@H](O)[C@H](O)[C@H]2NC(=O)/C=C/CC(C)C)O[C@H](CO)[C@@H](O)[C@@H]1O	inhibition	0.5 µg/mL		Semliki Forest virus		plaque count	VERO	92.6%
C[C@H]1C[C@@H](n2cnc3c(N)ncnc32)[C@H](O)[C@@H]1O	EC50			Tacaribe virus		cytopathic effect	VERO	23 µg/mL
N=C(N)c1ccc(OCc2cccc(COc3ccc(C(=N)N)cc3)c2)cc1	EC50			Pneumocystis carinii			A549	1.18 µg/mL
COC(=O)[C@@]12OC[C@]34[C@H]([C@@H](O)[C@@H]1O)[C@@]1(C)CC(=O)C(O)=C(C)[C@@H]1C[C@H]3OC(=O)[C@H](OC(=O)C=C(C)C)[C@@H]24	EC50			Kaposi sarcoma virus		GFP / microscopy	BC3	<0.05 µM
NC(N)=NS(=O)(=O)c1ccc(N)cc1	EC50			Encephalitozoon cuniculi		cytopathic effect	MRC-5 fibroblasts	>50 µg/mL
O=[N+]([O-])c1c(N2CCCC2)ncnc1N1CC[N+]2(CC1)CC[N+]1(CCN(c3ncnc(N4CCCC4)c3[N+](=O)[O-])CC1)CC2	EC50			Coxsackie virus	B3	cytopathic effect	HeLa	>70 µg/mL
c1ccc2c(c1)CCc1ccccc1C2	EC50			Rhinovirus	TYPE 14	cytopathic effect	HELA-H1	>200 µM
NNC(=S)N/N=C/c1c[nH]c2ccccc12	MIC100		24 h	Mycobacterium bovis BCG	1173P2	broth dilution		250 µg/mL
COc1cc([C@@H]2c3cc4c(cc3[C@@H](O[C@@H]3O[C@@H]5CO[C@@H](C)O[C@H]5[C@H](O)[C@H]3O)[C@H]3COC(=O)[C@H]23)OCO4)cc(OC)c1O	inhibition	10 µg/mL	7 d	Pneumocystis carinii				85%
CCCCCCCCN1[C@H](CN)[C@@H](O)[C@H](O)[C@H]1CO	EC50			Dengue virus				>50 µM
Nc1ccn([C@@H]2C[C@@H](O)[C@H](CO)O2)c(=O)n1	EC50			Duck hepatitis B virus			PDH	0.87 µM
O=C(Nc1ccc(Cl)cc1)c1cc(Cl)ccc1OP(=O)(c1ccccc1)c1ccccc1	MIC		21 d	Mycobacterium kansasii	My 6509/96			8 µM
CC(C)S(=O)(=O)n1c(N)nc2ccc(/C(=N/O)c3ccccc3)cc21	EC50			Rhinovirus	Serotype 50	plaque count	HeLa	<0.01 µg/mL
Nc1ccn([C@@H]2C[C@H](CO)[C@@H](O)[C@H]2O)c(=O)n1	EC50			Vesicular stomatitis virus		cytopathic effect	BSC-1A	300 µg/mL
CCC(C)n1ncn(-c2ccc(N3CCN(c4ccc(OC[C@H]5CO[C@](Cn6cncn6)(c6ccc(Cl)cc6Cl)O5)cc4)CC3)cc2)c1=O	inhibition	0.2 µg/mL		Encephalitozoon cuniculi		cytopathic effect	MRC-5 fibroblasts	9%
Nc1ncnc2c1ncn2CCOCP(=O)(O)O	EC50			Epstein-Barr virus		PCR	P3HR-1	0.42 µg/mL
NNC(=S)N/N=C/c1cn(Cc2ccccc2F)c2ccccc12	MIC100		24 h	Mycobacterium bovis BCG	1173P2	broth dilution		>500 µg/mL
C#CC[C@@H](C(=O)N[C@H](/C=C/C(=O)OCC)C[C@@H]1CCNC1=O)n1cccc(NC(=O)c2cc(C)on2)c1=O	EC50			Rhinovirus	Serotype 87	cytopathic effect / XTT	H1-HELA	0.045 µM
NC(=O)c1ncn([C@@H]2O[C@H](CO)[C@@H](O)[C@H]2O)n1	EC50			Rhinovirus	TYPE 9	cytopathic effect	HeLa	>8 µg/mL
Oc1ccc2oc3ccccc3c2c1	inhibition	50 µM		Rhinovirus	TYPE 16	plaque count	HELA-H1	93%
CC(C)CC(=O)C1=C(O)C(C)(C)C(=O)C(C)(C)C1=O	MIC			Enterococcus faecalis	Vancomycin-resistant			125 µg/mL
O=C(Nc1ccc(Br)cc1)c1cc(Cl)ccc1OP(=O)(Oc1ccccc1)c1ccccc1	MIC		14 d	Mycobacterium kansasii	My 235/80			8 µM
CCCCCn1cc(/C=N/Nc2nncs2)c2ccccc21	MIC100		24 h	Mycobacterium bovis BCG	1173P2	broth dilution		3.91 µg/mL
c1ccc([Se][Se]c2ccccc2)cc1	MFC			Candida lusitaniae	ATCC 66035	broth dilution		>64 µg/mL
CC[C@@]1(O)C(=O)OCc2c1cc1n(c2=O)Cc2cc3ccccc3nc2-1	EC50			Trypanosoma brucei				1.6 µM
C[C@@]1(O)[C@H](O)[C@@H](CO)O[C@H]1n1ccc2c(N)ncnc21	inhibition	50 µg/mL		Hepatitis C virus		MTT	HepG2-T5B	0%
O=c1[nH]c(=O)n([C@H]2C[C@H](O)[C@@H](CO)O2)cc1/C=C/Br	EC50			Epstein-Barr virus		hybridisation	P3HR-1	≥50 µg/mL
O=C(Nc1ccc(C(F)(F)F)cc1)c1cc(Br)ccc1OP(=O)(c1ccccc1)c1ccccc1	MIC		21 d	Mycobacterium kansasii	My 235/80			8 µM
C(=N\Nc1nncs1)/c1cn(Cc2ccccc2)c2ccccc12	MIC100		24 h	Mycobacterium bovis BCG	1173P2	broth dilution		125 µg/mL
O=c1cc(-c2ccccc2)oc2cc(O)c(O)c(O)c12	EC50			Adenovirus	TYPE 8	cytopathic effect	BCC-1/KMC	>20 µg/mL
COc1cc(N)c(Cl)cc1C(=O)N[C@H]1CCN2[C@H](CCC[C@H]2C)C1	EC50			Influenza A virus	H1N1 A/WSN/33	plaque count	MDBK	>20 µg/mL
NNC(=S)N/N=C/c1cn(CC2CC2)c2ccccc12	MIC100		48 h	Mycobacterium bovis BCG	1173P2	broth dilution		>500 µg/mL
N=C(N)c1ccc(OCc2ccccc2COc2ccc(C(=N)N)cc2)cc1	EC50			Pneumocystis carinii			A549	0.583 µg/mL
Clc1ccc(C2CCc3ccccc3O2)c(Cl)c1	EC50			Rhinovirus	TYPE 9	cytopathic effect	HeLa	0.25 µg/mL
C1CC2(CN1)C1CC3CC(C1)CC2C3	inhibition	100 µM		Coxsackie virus	TYPE A21		HeLa	<20%
CCc1nc(N)nc(N)c1-c1ccc(Cl)cc1	EC50			Encephalitozoon cuniculi		cytopathic effect	MRC-5 fibroblasts	>50 µg/mL
O=C(OC1Cc2c(O)cc(O)cc2OC1c1cc(O)c(O)c(O)c1)c1cc(O)c(O)c(O)c1	MIC50			Candida tropicalis	Clinical isolate 6	broth dilution		>128 µg/mL
COC(=O)[C@]12OC[C@]34[C@H]([C@@H](O)[C@H]1O)[C@@]1(C)CC(=O)C(O)=C(C)[C@@H]1C[C@H]3OC(=O)[C@H](OC(=O)/C=C(\C)C(C)C)[C@@H]24	EC50			Kaposi sarcoma virus		GFP / microscopy	BC3	<0.05 µM
CCCCn1cc(/C=N/NC(=S)NN)c2ccccc21	MIC100		24 h	Mycobacterium bovis BCG	1173P2	broth dilution		>500 µg/mL
CO[C@H]1[C@@H](OC(=O)/C=C/C=C/C=C/C=C/C(=O)O)CC[C@@]2(CO2)[C@@H]1[C@@]1(C)O[C@@H]1CC=C(C)C	MIC			Vittaforma corneae				0.00081 µg/mL
[Al]#[P]	MIC			Aspergillus ochraceus		agar		2 µg/mL

Repeating the final 8 entries:

compound	read-out	tested at	setting	organism	strain or isolate	read by	cell line	result
Clc1ccc(C2CCc3ccccc3O2)c(Cl)c1	EC50			Rhinovirus	TYPE 9	cytopathic effect	HeLa	0.25 µg/mL
C1CC2(CN1)C1CC3CC(C1)CC2C3	inhibition	100 µM		Coxsackie virus	TYPE A21		HeLa	<20%
CCc1nc(N)nc(N)c1-c1ccc(Cl)cc1	EC50			Encephalitozoon cuniculi		cytopathic effect	MRC-5 fibroblasts	>50 µg/mL
O=C(OC1Cc2c(O)cc(O)cc2OC1c1cc(O)c(O)c(O)c1)c1cc(O)c(O)c(O)c1	MIC50			Candida tropicalis	Clinical isolate 6	broth dilution		>128 µg/mL
COC(=O)[C@]12OC[C@]34[C@H]([C@@H](O)[C@H]1O)[C@@]1(C)CC(=O)C(O)=C(C)[C@@H]1C[C@H]3OC(=O)[C@H](OC(=O)/C=C(\C)C(C)C)[C@@H]24	EC50			Kaposi sarcoma virus		GFP / microscopy	BC3	<0.05 µM
CCCCn1cc(/C=N/NC(=S)NN)c2ccccc21	MIC100		24 h	Mycobacterium bovis BCG	1173P2	broth dilution		>500 µg/mL
CO[C@H]1[C@@H](OC(=O)/C=C/C=C/C=C/C=C/C(=O)O)CC[C@@]2(CO2)[C@@H]1[C@@]1(C)O[C@@H]1CC=C(C)C	MIC			Vittaforma corneae				0.00081 µg/mL
[Al]#[P]	MIC			Aspergillus ochraceus		agar		2 µg/mL